PubChem BioAssay AID1259414 – Drosophila RNAi Screening Center, 2018

Test: 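Genome-wide screen for host control of endosymbiont load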 (primary screen)
Cell system: Drosophila JW18 cells infected with Wolbachia
Reagent: long dsRNA against Drosophila genes, 0.25 µg dsRNA per well of a 384-well plate
Duration: 5 days
Challenge: cells persistently infected with Wolbachia before knock-down; no added drug
Detection: 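Automated imaging of bacterial rRNA staining divided by host cell count, reported as plate-normalised robust z-score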
Scale: Wolbachia per cell robust z: higher = more Wolbachia per host cell than the plate typical
Rule for the call: 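Active if absolute robust z reaches 1.5 in two or more of three replicates, leaving out multi- or no-target dsRNAs, genes unexpressed in JW18 and A1 wells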
The deposit covers about 24,000 reagents; shown is a random part of those that have a named target and a result. Of all reagents, about 1,210 (5%) were called active. 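Inactive calls also include excluded dsRNAs with several or no targets, genes unexpressed in JW18, and well A1, regardless of score.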 Unmarked entries are inactive. A plus sign joins genes that one reagent is predicted to hit.

| target gene | dsRNA | Wolbachia per cell robust z, rep 1 | Wolbachia per cell robust z, rep 2 | Wolbachia per cell robust z, rep 3 |
| --- | --- | --- | --- | --- |
| mth (methuselah) | DRSC08725 | 0.283 | 0.0178 | 0.178 |
| mth (methuselah) | DRSC39165 | -3.06 | 0.833 | 0.413 |
| snRNA:U1:82Eb (small nuclear RNA U1 at 82Eb) | DRSC37890 | -0.482 | 0.0617 | -0.525 |
| Flacc (Fl(2)d-associated complex component) | DRSC20040 | 1.14 | 0.276 | 2.14 |
| Flacc (Fl(2)d-associated complex component) | DRSC25501 | 1.96 (active) | 0.757 | 2.37 |
| asRNA:CR32252 (antisense RNA:CR32252) | DRSC41327 | 1.63 | 1.08 | 0.212 |
| CG16904 | DRSC15161 | -1.23 | -7.35 | -1.13 |
| CG16904 | DRSC25306 | -0.37 | -0.329 | 0.65 |
| gl (glass) | DRSC27242 | 0.312 | 0.687 | 1.21 |
| CG31743 + CG34313 | DRSC02781 | -0.581 | -0.564 | 0.264 |
| CG31743 + CG34313 | DRSC02782 | -0.517 | 0.8 | -0.175 |
| bab2 (bric a brac 2) | DRSC08150 | 0.868 | 0.712 | 0.494 |
| bab2 (bric a brac 2) | DRSC26326 | -1.4 | 0.366 | -0.305 |
| jtb (jetboil) | DRSC06868 | -0.251 | -0.476 | -0.145 |
| GstE13 (Glutathione S transferase E13) | DRSC06083 | 1.51 (active) | 1.91 | 0.428 |
| myd (mayday) | DRSC15512 | 0.991 | 0.384 | 0.246 |
| CG5773 | DRSC06955 | -2.61 | 1.01 | 0.72 |
| CG5773 | DRSC28940 | 0.289 | -0.614 | 0.0218 |
| tx (taxi) | DRSC16931 | 0.969 | -0.458 | 0.51 |
| tx (taxi) | DRSC27383 | -5.65 | 0.125 | -1.2 |
| CG14088 | DRSC10092 | -1.11 | 0.103 | -0.485 |
| Wnt2 (Wnt oncogene analog 2) | DRSC05160 | -0.00486 | 1.07 | 1.54 |
| Wnt2 (Wnt oncogene analog 2) | DRSC07574 | 0.0846 | -0.325 | 1.11 |
| ncd (non-claret disjunctional) | DRSC17012 | 1.48 | -0.458 | 0.737 |
| kl-3 (male fertility factor kl3) | DRSC20730 | -0.902 | 0.256 | -7.39 |
| kl-3 (male fertility factor kl3) | DRSC20891 | 0.642 | 0.25 | 0.535 |
| kl-3 (male fertility factor kl3) | DRSC20934 | 0.809 | 0.31 | -0.99 |
| kl-3 (male fertility factor kl3) | DRSC38637 | -6.01 | 0.491 | -0.858 |
| kl-3 (male fertility factor kl3) | DRSC38673 | 0.125 | 0.229 | 0.231 |
| CG4914 | DRSC10458 | -0.274 | 0.137 | -0.305 |
| asRNA:CR43465 + Ucp4B | DRSC02665 | -0.153 | -0.781 | -2.03 |
| CG15186 | DRSC12566 | 0.379 | -0.0616 | -0.0917 |
| CG15186 | DRSC26271 | -1.67 | -1.1 | 0.283 |
| CG32681 | DRSC17646 | -1.02 | -0.68 | -0.443 |
| CG33981 + fab1 | DRSC07412 | -0.709 | -1.52 | -1.85 |
| CG6675 | DRSC03735 | 0.0351 | 0.00155 | -0.65 |
| Orco (Odorant receptor co-receptor) | DRSC12358 | 1.25 | 0.82 | 0.989 |
| Orco (Odorant receptor co-receptor) | DRSC27061 | -1.01 | -1.17 | -0.614 |
| lgs (legless) | DRSC17152 | 1.33 | 0.376 | -0.448 |
| Alg7 | DRSC02833 | -0.0781 | -0.662 | -0.0326 |
| Alg7 | DRSC02834 | -0.733 | -0.772 | -0.811 |
| Ktl (Kctd12-like) | DRSC14270 | -0.175 | -0.174 | -0.517 |
| Ccp84Aa | DRSC12586 | -0.62 | -0.372 | -0.382 |
| Ccp84Aa | DRSC25114 | 0.347 | 0.0359 | 1.25 |
| CG31777 | DRSC00201 | 0.498 | 0.319 | 0.247 |
| RpS28-like (Ribosomal protein S28-like) | DRSC38760 | 0.11 | 0.719 | -1.33 |
